Test results: PubChem BioAssay AID1706 (The Scripps Research Institute Molecular Screening Center, 2009)
Several values for one entry are separate records, joined by “and”; a condition that tells them apart may be missing. Identical values can stand only once. This is a selection; strong and weak results do not stand in their true shares. Activity calls are given as the source filed them. No stated cut-off is given here; in the data, active means inhibition above about 12%; inactive means the rest.

Biological target: Replicase polyprotein 1ab (Severe acute respiratory syndrome coronavirus) (UniProt P0C6X7)
Assay: SARS-CoV 3CLpro protease inhibitors, primary screen, biochemical, quenched FRET (AID 1706)
Conditions: recombinant SARS-CoV 3CLpro, quenched FRET peptide cleavage; at 6 µM; hits give high values

Row | SMILES | inhibition
1 | CC(C)CC(=O)NC(Sc1ccc(Cl)cc1)C(Cl)(Cl)Cl (centres undefined) | inactive: 3.86%
2 | Nc1cc(N)c2nonc2c1[N+](=O)[O-] | inactive: 1.47%
3 | Cc1c2non([O-])c-2c(C)[n+](=O)[n+]1[O-] | inactive: -3.21%
4 | O=C(NC(Sc1ccncn1)C(Cl)(Cl)Cl)c1ccccc1 (centres undefined) | inactive: -3.29%
5 | Oc1ccccc1CNc1ccccn1 | inactive: -3.35%
6 | Cc1ccc(OP(=O)(Nc2nccs2)Oc2ccc(C)cc2)cc1 | inactive: -0.91%
7 | COc1ccccc1OP(=O)(Nc1ccc(C)cn1)Oc1ccccc1OC | inactive: 4.22%
8 | Clc1ccc(Cl)c(NC2=NCC(CBr)S2)c1 (centres undefined) | inactive: 0.08%
9 | CN1CCCC(OC(=O)C(c2ccccc2)c2ccccc2)C1 (centres undefined) | inactive: 1.93%
10 | NC(=O)c1cc([N+](=O)[O-])cc([N+](=O)[O-])c1N | inactive: 2.95%
11 | Cc1ccc(N/C(=N/P(=O)(N2CCOCC2)N2CCOCC2)N2CCOCC2)cc1 | inactive: -2.26%
12 | CCN(N=Nc1nonc1N)c1nonc1N | inactive: 4.82%
13 | Nc1cccc2ccc([As](=O)(O)O)cc12 | inactive: 3.07%
14 | O=[N+]([O-])c1cc([N+](=O)[O-])c(CCN2CCOCC2)c([N+](=O)[O-])c1 | inactive: -2.46%
15 | Cc1ccc(NP(=O)(Oc2ccccc2F)Oc2ccccc2F)nc1 | inactive: 0.99%
16 | CCOP(=O)(Nc1ccccc1)OCC | inactive: 2.22% and inactive: 0.39%
17 | Cc1cc(SC(NC(=O)c2ccc(F)cc2)C(Cl)(Cl)Cl)ncn1 (centres undefined) | inactive: 0.7%
18 | O=C(O)c1ccccc1[As](=O)(O)O | inactive: 0.67%
19 | CC(=O)Nc1ccc([As](=O)(O)O)cc1 | inactive: -1.23%
20 | O=P(Nc1nc2ccc(Cl)cc2s1)(c1ccccc1)c1ccccc1 | inactive: -0.74%
21 | O=[N+]([O-])c1cccc(NC2=NCC(CBr)S2)c1 (centres undefined) | inactive: 0.36%
22 | O=C(O)CNc1ccc([As](=O)(O)O)cc1 | inactive: 5.21%
23 | CC(C)(C)C(=O)NC(Sc1ccncn1)C(Cl)(Cl)Cl (centres undefined) | inactive: 5.28%
24 | O=[N+]([O-])c1ncn(CCn2ncnc2[N+](=O)[O-])n1 | inactive: 0.34%
25 | O=C(Nc1cc([As](=O)(O)O)ccc1O)c1ccccc1 | inactive: -1.26%
26 | CN(C)C(=O)OCCc1n(C)cc[n+]1C | inactive: -2.74%
27 | CC(C)=N/N=C(\N)N[N+](=O)[O-] | inactive: -2.44%
28 | CC1CCN(C(=O)Oc2c(Cl)cc(Cl)c3cccnc23)CC1 | inactive: -0.16%
29 | C[N+]1=C2C=CC=CC=C2SC12C([N+](=O)[O-])=CC([N+](=O)[O-])=C[C-]2[N+](=O)[O-] (centres undefined) | inactive: 6.53%
